Measured values from several laboratories, pooled; numbers as filed in NIAID ChemDB.

Shared fields: growth or infection tests; species: HIV-1; endpoint: inhibition

Inhibition is in % at the dose shown (toxicity tests: loss of growth or viability). An empty or dashed field is not shown. Lines come from different laboratories, so protocols vary.

compound | strain | changes | cells | read by | conditions | dose | result
O=S(=O)(O)c1cc(N=C=S)ccc1CCc1ccc(N=C=S)cc1S(=O)(=O)O | RF | - | C8166 | p24 | - | 100 µg/mL | 97.5%
CCCCCOCCCCCCCC(=O)O | IIIB | - | CEM + CEM-SS | cytopathic effect / XTT | - | 20 µM | 13.4%
NCC(=O)N1CCC[C@H]1C(=O)NCC(=O)N[C@H](C=O)CCCN=C(N)N | ELI | - | HUT | p24 | - | 25 µg/mL | 0%
COc1c2c(cc3oc(=O)c(-c4ccc(O)cc4O)cc13)OC(C)(CO)CC2 | - | - | MOLT-4/OKM-1(HIV-1) + MOLT-4 | syncytia | - | 20 µg/mL | 100%
OCCN1CCN(CC/C=C2\c3ccccc3Sc3ccc(C(F)(F)F)cc32)CC1 | IIIB | - | MOLT-3 | syncytia | - | 10 µg/mL | 43%
COc1ccc(CN[C@@H](C(=O)N[C@H](C(=O)NCc2nc3ccccc3[nH]2)C(C)C)[C@H](O)[C@H](Cc2ccccc2)NC(=O)[C@@H](NC(=O)OCc2ccccc2)C(C)(C)C)cc1 | HEM | - | Primary T4 lymphocytes + T4 | p24 | clinical isolate | 0.017 µM | 90%
O=C(O)P(=O)(O)O | IIIB | - | PBL | RT activity | 6 d | 16 µM | 75%
COc1ccc(CN[C@@H](C(=O)N[C@H]2c3ccccc3C[C@H]2O)[C@H](O)[C@H](Cc2ccccc2)NC(=O)[C@@H](NC(=O)OCc2ccccc2)C(C)(C)C)cc1 | SF162 | - | Primary monocytes + Monocyte | p24 | - | 0.32 µM | 90%
O=c1[nH]cnc2c1ncn2[C@H]1CC[C@@H](CO)O1 | ddI-resistant (RT K65R/L74V/M184V) | RT-K65R L74V M184V | PBMC | p24 | - | 10 µM | 20%
Cc1cn([C@H]2C[C@H](N=[N+]=[N-])[C@@H](COP(=O)(O)OC[C@H]3OC(O)[C@@H](O)[C@@H](O)[C@@H]3O)O2)c(=O)[nH]c1=O | LAV-Bru | - | U-937 | RT activity | 11 d | 5 µM | 0%
O=C1N(Cc2ccc(CO)cc2)[C@H](Cc2ccccc2)[C@H](O)[C@@H](O)[C@@H](Cc2ccccc2)N1Cc1ccc(CO)cc1 | IIIB | - | PBMC | virus yield | - | 0.14 µM | 90%
CC(C)(O)c1cccc(CN2C(=O)N(Cc3cccc(C(C)(C)O)c3)[C@H](Cc3ccccc3)[C@H](O)[C@@H](O)[C@H]2Cc2ccccc2)c1 | HXB2 | - | MT-2/MT-4 + MT-2 | p24 | - | 0.0222 µM | 90%
COC(=O)[C@@H]1C2CCC(C[C@@H]1OC(=O)c1ccccc1)N2C | IIIB | - | ACH-2 + ACH2 | p24 | - | 50 µg/mL | <0%
N[C@@H](CCC(=O)N[C@@H](CS)C(=O)NCC(=O)O)C(=O)O | IIIB | - | H9(HIV-1(IIIB)) + H9 | RT activity | - | 1838 µM | 0%
O=Nc1c(-c2c(O)[nH]c3ccccc23)[nH]c2ccccc12 | IIIB | - | PM1 | p24 | - | 0.5 µM | 55%
C/C=C(\C)C(=O)O[C@H]1[C@H]2[C@@H](CC=C3C[C@@H](O[C@H]4C[C@@H](OC)[C@H](O[C@@H]5OC(C)[C@@H](O[C@@H]6OC(CO)[C@@H](O[C@@H]7OC(CO)[C@@H](O)[C@H](O)C7O)[C@H](O)C6O)[C@H](OC)C5O)C(C)O4)CC[C@@]32C)[C@@]2(O)CC[C@H](C(C)=O)[C@@]2(C)[C@@H]1OC(=O)/C(C)=C/C | - | - | SupT1 | luciferase | pseudotyped | 30 µM | 37.81%
NCC(=O)N1CCC[C@H]1C(=O)NCC=O | ELI | - | HUT | p24 | - | 250 µg/mL | 0%
Cc1cn([C@H]2C[C@H](N=[N+]=[N-])[C@@H](CO)O2)c(=O)[nH]c1=O | IIIB | - | C8166 | antigen | - | 0.08 µg/mL | 71%
Cc1cn([C@H]2C[C@H](N=[N+]=[N-])[C@@H](CO)O2)c(=O)[nH]c1=O | LAV-1 | - | CEM | virus yield | - | 10 µM | >100%
Cc1cn([C@H]2C[C@H](N=[N+]=[N-])[C@@H](CO)O2)c(=O)[nH]c1=O | LAV-Bru | - | CEM | RT activity | 15 d | 5 µM | 97%
CNCCC=C1c2ccccc2CCc2ccccc21 | IIIB | - | MOLT-3 | p24 | - | 5 µg/mL | 0%
O=C(O)P(=O)(O)O | IIIB | - | H9 | p24 / antigen | 2 d | 30 µM | 0%
C/C(=C(/CCO)SS/C(CCO)=C(\C)N(C=O)Cc1cnc(C)nc1N)N(C=O)Cc1cnc(C)nc1N | IIIB | - | MOLT-4/HIV-1(IIIB) + MOLT-4 | p24 | - | 125 µM | 80%
CC(C)=C1C=C(C(C)C)C(O)CC1 | IIIB | - | Jurkat cells | p24 | - | 0.1 µM | 33.3%
CN=C1CN=C(c2ccc[nH]2)c2cc(Cl)ccc2N1 | LAV-1 | - | HT4 + HT4-6C | syncytia | - | 0.316 µM | 43%
COc1ccccc1CN[C@H]1C2CCN(CC2)[C@H]1C(c1ccccc1)c1ccccc1 | ADA R5 isolate | - | Macrophage + Monocytes/macrophages | RT activity | - | 0.1 µM | 70%
C=CC(C)(C)c1cc(/C=C/C(=O)c2ccc(O)cc2)c(OC)cc1O | - | - | MOLT-4/OKM-1(HIV-1) + MOLT-4 | syncytia | - | 20 µg/mL | 100%
CCCCCCCCCCOCCC(=O)O | IIIB | - | CEM + CEM-SS | cytopathic effect / XTT | - | 20 µM | 4.8%
CC(C)Nc1cccnc1N1CCN(C(=O)c2cc3cc(N=CN(C)C)ccc3[nH]2)CC1 | Seropositive clinical isolate D | - | PBMC | MTT | - | 1 µM | 100%
Nc1ccn([C@@H]2CS[C@H](CO)O2)c(=O)n1 | BZ X4 | - | PBL (activated) + PBL | RT activity | - | 5 µM | 100%
CC(=O)[C@H]1CC[C@H]2[C@@H]3CCC4=CC(=O)CC[C@]4(C)[C@H]3CC[C@]12C | - | - | U1 | p24 | - | 1 µM | 54.9%
COc1ccc(OC[C@H]2CN(C)CC[C@@H]2c2ccccc2)cc1 | IIIB | - | MOLT-3 | p24 | - | 4 µg/mL | 0%
CC(C)(C)NC(=O)[C@@H]1C[C@@H]2CCCC[C@@H]2CN1C[C@@H](O)[C@H](Cc1ccccc1)NC(=O)[C@H](CC(N)=O)NC(=O)c1ccc2ccccc2n1 | BaL | - | Macrophage + Monocytes/macrophages | p24 | - | 0.08 µM | 65%
NC(N)=NCCC[C@@H](C=O)NC(=O)CNC(=O)[C@@H]1CCCN1 | ELI | - | HUT | p24 | - | 25 µg/mL | 0%
OC[C@H]1NC[C@H](O)[C@@H](O)[C@@H]1O | IIIB | - | MOLT-4 | cell fusion | - | 320 µg/mL | 87%
O=c1[nH]cnc2c1ncn2[C@H]1CC[C@@H](CO)O1 | IIIB | - | PBL (resting) + PBL | RT activity | - | 1 µM | 97%
Nc1ccn([C@H]2CC[C@@H](CO)O2)c(=O)n1 | LAV-1 | - | HT4 + HT4-6C | syncytia | - | 0.1 µM | 88%
Cc1cn([C@H]2C[C@H](N=[N+]=[N-])[C@@H](COP(=O)(O)OC[C@H]3OC(O)[C@H](O)[C@@H](O)[C@@H]3O)O2)c(=O)[nH]c1=O | LAV-Bru | - | U-937 | RT activity | 11 d | 5 µM | 0%
Fc1ccc([C@@H]2CCNC[C@H]2COc2ccc3c(c2)OCCO3)cc1 | IIIB | - | MOLT-3 | p24 | - | 4 µg/mL | 37%
O=C(O)CCCCCCCCCCOc1ccccc1 | IIIB | - | CEM + CEM-SS | cytopathic effect / XTT | - | 20 µM | 9.4%
CC(C)[C@H](NC(=O)c1ccc2ccccc2n1)C(=O)N[C@@H](Cc1ccccc1)[C@H](O)CN1CC[C@@H](OCc2ccncc2)C[C@H]1C(=O)NC(C)(C)C | ddI-resistant | - | C8166 | p24 | - | 0.034 µM | 90%
O=C(O)/C=C/c1ccc[c]([Sb](=[O])([OH])[OH])c1 | 92US727 R5 clinical isolate | - | MAGI | β-galactosidase | - | 10 µM | 55.5%
c1cc(CN2CCCNCCNCCCNCC2)ccc1CN1CCCNCCNCCCNCC1 | 92RW026 CLADE A R5 | - | PBMC | p24 | - | 0.5 µM | 63%
Nc1ccn([C@H]2CC[C@@H](CO)O2)c(=O)n1 | BZ X4 | - | PBL (activated) + PBL | RT activity | - | 0.2 µM | 96%
O=C(O)c1cc(O)c(O)c(O)c1 | IIIB | - | MOLT-3 | syncytia | - | 5 µg/mL | 67%
NC(N)=NCCC[C@H](N)C(=O)NCC(=O)N1CCC[C@H]1C(=O)NCC=O | ELI | - | HUT | p24 | - | 25 µg/mL | 0%
CCCCCN1CC[C@H](c2ccc(F)cc2)[C@@H](COc2ccc3c(c2)OCCO3)C1 | IIIB | - | MOLT-3 | p24 | - | 4 µg/mL | 17%
Oc1ccc(/C=C/c2cc(O)cc(O)c2)cc1 | EJC-X2 | - | PBMC | p24 | clinical isolate | 5 µM | 15%
COc1ccc(OC[C@H]2CNCC[C@@H]2c2ccc(F)cc2)cc1 | IIIB | - | MOLT-3 | p24 | - | 4 µg/mL | 0%
O=C(O)CCCCCCCCCCCCl | IIIB | - | CEM + CEM-SS | cytopathic effect / XTT | - | 20 µM | 14.8%

Again, the opening 5 rows:

compound	strain	changes	cells	read by	conditions	dose	result
O=S(=O)(O)c1cc(N=C=S)ccc1CCc1ccc(N=C=S)cc1S(=O)(=O)O	RF	-	C8166	p24	-	100 µg/mL	97.5%
CCCCCOCCCCCCCC(=O)O	IIIB	-	CEM + CEM-SS	cytopathic effect / XTT	-	20 µM	13.4%
NCC(=O)N1CCC[C@H]1C(=O)NCC(=O)N[C@H](C=O)CCCN=C(N)N	ELI	-	HUT	p24	-	25 µg/mL	0%
COc1c2c(cc3oc(=O)c(-c4ccc(O)cc4O)cc13)OC(C)(CO)CC2	-	-	MOLT-4/OKM-1(HIV-1) + MOLT-4	syncytia	-	20 µg/mL	100%
OCCN1CCN(CC/C=C2\c3ccccc3Sc3ccc(C(F)(F)F)cc32)CC1	IIIB	-	MOLT-3	syncytia	-	10 µg/mL	43%